# Fitness effects across NS2B and the NS3 protease domain of Zika virus

The measurements come from Ni et al. 2025 (doi:10.1038/s41467-025-63602-z).

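Libraries of single mutants were passaged as virus pools on Huh-7.5 cells. Deep sequencing gave the change in frequency of each mutant relative to wild type, averaged over three replicate libraries (two for positions 207-308). The aim was to find sites where inhibitor-binding pockets cannot change.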

Chain scanned (Zika virus MR766; NS2B from position 2 to 131, then the start of NS3):
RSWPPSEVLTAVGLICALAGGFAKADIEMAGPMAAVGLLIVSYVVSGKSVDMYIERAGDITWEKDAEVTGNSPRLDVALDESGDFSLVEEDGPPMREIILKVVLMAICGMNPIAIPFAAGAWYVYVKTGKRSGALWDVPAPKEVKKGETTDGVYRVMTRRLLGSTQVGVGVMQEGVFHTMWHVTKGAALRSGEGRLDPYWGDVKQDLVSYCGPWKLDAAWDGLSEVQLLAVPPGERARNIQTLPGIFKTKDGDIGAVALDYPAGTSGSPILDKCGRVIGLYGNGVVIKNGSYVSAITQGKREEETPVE

Values are log2 effects on growth: 0 is wild type, lower means poorer growth.
Each entry names the wild-type residue, its position and the residue put in its place.
Positions 1-103, 104-206 and 207-308 were made and measured as separate libraries.

| mutation | log2 effect |
|---|---|
| V44Y | -5.98 |
| P116I | -5.17 |
| G147S | -4.40 |
| Y53H | -4.22 |
| S86E | -5.82 |
| L280* | -7.09 |
| T128F | -5.66 |
| P94K | -4.58 |
| D80A | -6.80 |
| N289T | -6.75 |
| K288G | -0.35 |
| G267M | -4.84 |
| L271F | -4.91 |
| P112I | -4.68 |
| G58K | -5.72 |
| A263G | -2.05 |
| Y199N | -3.05 |
| V153P | -6.54 |
| L223F | 0.08 |
| I296L | -5.67 |
| A106C | -0.67 |
| V153* | -5.96 |
| W181G | -6.30 |
| G279A | -5.74 |
| A140Q | -4.90 |
| G175M | -4.52 |
| T242K | -6.03 |
| S268T | -6.13 |
| V307Q | -0.81 |
| V183I | -5.29 |
| P4Q | -6.49 |
| I54W | -5.96 |
| L79F | -5.94 |
| P32V | -6.28 |
| A188P | -5.63 |
| F22T | -0.75 |
| T10K | -5.99 |
| F177I | -5.14 |
| W200M | -6.72 |
| G267L | -7.00 |
| D202I | -5.73 |
| S224A | -4.25 |
| Q227E | -6.57 |
| D221S | -7.10 |
| G264C | -4.70 |
| G13V | -5.92 |
| I296E | -4.31 |
| A34S | 0.39 |
| K273E | -2.19 |
| V153D | -4.66 |
| L271V | -1.35 |
| T10F | -5.28 |
| K145L | -1.29 |
| W181H | -4.85 |
| W62M | -6.47 |
| D80M | -5.64 |
| A256H | -5.96 |
| G186H | -4.40 |
| A121R | -7.31 |
| G264T | -5.94 |
| N111G | -5.91 |
| I246* | -7.34 |
| L79T | -7.31 |
| D260N | -4.23 |
| P233V | -6.11 |
| Q298* | -7.32 |
| K130S | -7.15 |
| I246R | -5.56 |
| K248W | -6.19 |
| T61H | -1.23 |
| D65I | -5.77 |
| T10A | -2.60 |
| E308W | -2.28 |
| E90W | -0.27 |
| G92W | -1.52 |
| L161M | -2.21 |
| A256S | -7.59 |
| T179L | -7.32 |
| Y281R | -6.36 |
| N111S | 0.03 |
| Y199L | -5.62 |
| V44D | -4.48 |
| L229N | -0.82 |
| S132N | -5.97 |
| G163R | -4.41 |
| N111D | -3.14 |
| V156I | -0.42 |
| V307M | -0.17 |
| P269K | -4.71 |
| E303T | -1.02 |
| I115L | -1.18 |
| V102I | 0.39 |
| L162C | -3.69 |
| V167D | -6.00 |
| A19Q | -6.47 |
| V153T | -6.03 |
| S49H | -2.30 |
| V171T | -6.31 |
| V156H | -5.84 |
| I270A | -4.75 |
| K185D | -4.88 |
| D221K | -5.08 |
| P139I | -4.96 |
| V257P | -5.41 |
| V183L | -6.36 |
| V102F | 0.32 |

Excerpt, the final 9 entries:

mutation	log2 effect
V171T	-6.31
V156H	-5.84
I270A	-4.75
K185D	-4.88
D221K	-5.08
P139I	-4.96
V257P	-5.41
V183L	-6.36
V102F	0.32

An asterisk is a stop codon; stop codons read about -7, near the floor of the assay.
Six mutants with high scores were retested singly and none clearly outgrew wild type, so positive values are not proof of better growth.
Position 1 still belongs to NS2A. In the paper, -1 or higher counts as tolerated.